# Laboratory results reported in the supplement of paper PMC12637763.
# The list shows a part of the results. Env chains of viruses from a treatment-interruption trial, translated from the printed DNA. IC50 / IC80 of two broadly neutralizing antibodies; lower = more sensitive virus; >50 µg/ml means not reached and <0.001 µg/ml is below the lowest dose. No active / inactive call.
# B1: HIV-1 Env, reservoir clone (protein)
# chain: MKAKETRKNYQHLWRWGIMLLGMLMICSAASQLWVTVYYGVPVWKEATTTLFCASDAKAYDTEVHNVWATHACVPTDPNPQEVVLGNVTEDFNMWKNNMVEQMHEDIISLWDQSLKPCVKITPLCVTLNCTEYSNATSTTWGQMEKGEIKNCSFNVTTNIKNKMQKEYALFYKLDVVPIGDNSTNYRLIKCNTSAITQACPKVSFQPIPIHYCAPAGFAILKCNNKTFNGLGPCTNVSTVQCTHGIRPVVSTQLLLNGSLAEEEIVIRSENFSDNAKIIIVHLNASIEINCTRPNNNTRKSITIGPGRAFYATGDVIGDIRQAHCNISGEKWNEALKQIAIKLREQFGHNKTIVFNQSSGGDPEIVAHSVNCGGEFFYCNSTKLFNSTWTRNNTTESNETITLPCKIKQIINLWQEVGKAIYAPPISGPIRCSSNITGLLLTRDGGNTSETNKETFRPGGGDMRDNWRSELYKYKVVKIEPLGVAPTKAKRRVVQRERRAVGTFGALFLGFLGTAGSTMGAASITLTVQARQLLSGIVQQQNNLLKAIEAQQHLLQLTVWGIKQLQARVLAVERYLKDQQLLGLWGCSGKLICTTTVPWNASWSNKSLEQIWENMTWMQWEKEIDNYTGIIYSLISESQLQQEKNEKELLELDKWASLWTWFDITNWLWYIRIFIMIVGGLIGLRIVFAVLSIVNRVRKGYSPLSFQTRLPTPRGPDRPEGIEEEGGERGRDTSIRLVDGFLALIWDDLRNLCLFSYHHLRDLILIVVRTVELLGRRGWELLKYWWNLLKYWSQELKKSAVSLFNAAAIAVAEGTDRVIEVVQRAGRGILHVPRRIRQGLERALQ
# B2: HIV-1 Env, reservoir clone (protein)
# chain: MKVRVMQRNWQHLGRWGLLFLGLLICCNATEQLWVTVYYGVPVWKEATTTLFCASDAKGYEKEAHNVWATHACVPTDPNPQEIPLVNVTENFNMWKNNMVEQMQTDIISLWDQSLKPCVKLTPLCVTLNCNNNIKWATGNNSTNPDMKNCSFNMTTEVRDKRLKVSALFYKIDLTPINKSSGEYRLINCNTSTIKQACPKVSWDPIPIHYCAPAGYAILKCRDKNFNGTGPCNNVSTVQCTHGIKPVVSTQLLLNGSLAEEDIVIRTQNISDNAKTIIVSLNESVSINCIRPGNNTRKSIHIGPGQVFYANNDIIGDIRKAFCTLNGTQWNKTLDRVKAKLRSLFNKTTIIFAQPSGGDLEVTMHSFNCRGEFFYCNTSGLFNDIDSNITLPCRIKQIINMWQGVGQAMYTAPIAGNITCVSNITGLLLTRDGGPDNDNETFRPGGGDMRDNWRSELYKYKVVEIEPLGIAPTRAKRQVVRRERRAVGIGAMFLGFLGAAGSTMGAASIALTVQARQLLSGIVQQQNNLLRAIEAQQHLLQLTVWGIKQLQARVLAVERYLKDQQLLGVWGCSGKLICTTSVPWNSSWSNKSQQEIWDNMTWMDWEREISNYSQTIYKLLEESQYQQDKNEQELLALDKWASLWNWFDISNWLWYIRIFIMIVGGLIGLRIVFAVLAIVNRVRKGYSPLSLQTLIPNSRGPDRPEGIEEGGGEQDRDRSVRLVNGFLALVWDDLRNLCLFSYRLLRDFILIAARTVDRGLRGGWKALKYLWNLTQYWSRELKDSAISLYNSIAIAVAEGTDRIIEALQIIVRGVLHIPRRIRQGLERALL
# B3: HIV-1 Env, reservoir clone (protein)
# chain: MKVRVMQRNWQHLGRWGLLFLGLLICCNATEQLWVTVYYGVPVWKEATTTLFCASDAKGYEKEAHNVWATHACVPTDPNPQEIPLVNVTENFNMWKNNMVEQMQTDIISLWDQSLKPCVKLTPLCVTLNCNNNIKWANGNNSTNPDMKNCSFNMTTEVRDKRLKVSALFYKIDLTPINKSSGEYRLINCNTSTIKQACPKVSWDPIPIHYCAPAGYAILKCRDKNFNGTGPCNNVSTVQCTHGIKPVVSTQLLLNGSLAEEDIVIRTQNISDNAKTIIVSLNESVSINCIRPGNNTRKSIHIGPGQVFYANNDIIGDIRKAFCTLNGTQWNKTLDRVKAKLRSLFNKTTIIFAQPSGGDLEVTMHSFNCRGEFFYCNTSGLFNNNTFNNTGGNENITLPCRIKQIINMWQGVGQAMYTAPIAGNITCVSNITGLLLTRDGGPDNDNETFRPGGGDMRDNWRSELYKYKVVEIEPLGIAPTRAKRQVVRRERRAVGIGAMFLGFLGAAGSTMGAASIALTVQARQLLSGIVQQQNNLLRAIEAQQHLLQLTVWGIKQLQARVLAVERYLKDQQLLGVWGCSGKLICTTSVPWNSSWSNKSQQEIWDNMTWMDWEREISNYSQTIYKLLEESQYQQDKNEQELLALDKWASLWNWFDISNWLWYIRIFIMIVGGLIGLRMVFAVLAIVNRVRKGYSPLSLQTLIPNSRGPDRPEGIEEGGGEQDRDRSVRLVNGFLALVWDDLRNLCLFSYRLLRDFILIAARTVDRGLRGGWKALKYLWNLTQYWSRELRDSAISLYNSIAIAVAEGTDRIIEALLIIGRGILHIPRRIRQGLERALL
# Target: antibody 10-1074
# Assay: neutralization IC50; higher = virus less sensitive to the antibody
# Experimental: (§1)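 Pseudovirus bearing the Env chain mixed with antibody, from 50 µg/ml in fivefold dilutions, on TZM-bl reporter cells, in duplicate.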
row,Binder,neutralization IC50
1,B1,0.001 µg/mL
2,B2,> 50 µg/mL
3,B3,> 50 µg/mL

# Target: antibody 3BNC117
# Assay: as above
# Experimental: as §1
row,Binder,neutralization IC50
1,B1,0.047 µg/mL
2,B2,0.062 µg/mL
3,B3,0.374 µg/mL

# Target: antibody 10-1074
# Assay: neutralization IC80; higher = virus less sensitive to the antibody
# Experimental: as §1
row,Binder,neutralization IC80
1,B1,0.003 µg/mL
2,B2,> 50 µg/mL
3,B3,> 50 µg/mL

# Target: antibody 3BNC117
# Assay: as above
# Experimental: as §1
row,Binder,neutralization IC80
1,B1,0.198 µg/mL
2,B2,0.791 µg/mL
3,B3,1.78 µg/mL
